Anti-infective test results gathered from many reports (values: NIAID ChemDB through PubChem).

Shared fields: growth or infection tests; organism: HIV-2; read-out: inhibition

Percent inhibition refers to the dose given; in toxicity tests it is the harm to the cells. Conditions beyond the fields shown may differ between rows. An empty or dashed field is not shown.

structure	cells	strain	read by	dose	value
O=C1N(Cc2ccc(CO)cc2)[C@H](Cc2ccccc2)[C@H](O)[C@@H](O)[C@@H](Cc2ccccc2)N1Cc1ccc(CO)cc1	MT-2	ROD		0.05 µM	90%
COc1ccc(CN[C@@H](C(=O)N[C@H]2c3ccccc3C[C@H]2O)[C@H](O)[C@H](Cc2ccccc2)NC(=O)[C@@H](NC(=O)OCc2ccccc2)C(C)(C)C)cc1	MT-4	ROD	p24	0.6 µM	90%
Nc1ncnc2c1ncn2[C@H]1CC[C@@H](CO)O1	CEM	LAV-2	virus yield	10 µM	99%
O=C(NCc1ccc(F)cc1)c1nc(N2CCCCS2(=O)=O)c2cccnc2c1O				0.008 µM	95%
[B-]P(=O)([O-])CC[C@@H]1C=C[C@H](n2cc(C)c(=O)[nH]c2=O)O1	CEM	ROD	syncytia	400 µM	0%
CC1(C)[C@@H](O[C@H]2O[C@H](C(=O)O)[C@@H](O)[C@H](O)[C@H]2O[C@@H]2O[C@H](C(=O)O)[C@@H](O)[C@H](O)[C@H]2O)CC[C@]2(C)[C@H]3C(=O)C=C4[C@@H]5C[C@@](C)(C(=O)O)CC[C@]5(C)CC[C@@]4(C)[C@]3(C)CC[C@@H]12	MT-4	rot	ELISA	1000 µg/mL	79.7%
Cc1cn([C@H]2C[C@H](N=[N+]=[N-])[C@@H](CO)O2)c(=O)[nH]c1=O	PBMC	MS	RT activity	2.5 µg/mL	90%
CO[C@@H]1[C@@H](O)[C@@H](O)[C@H](O)[C@H](O)[C@H]1n1ccc(N)nc1=O	MT-4		cytopathic effect / MTT	10 µg/mL	52.8%
CC(C)[C@H](NC(=O)c1ccc2ccccc2n1)C(=O)N[C@@H](Cc1ccccc1)[C@H](O)CN1CC[C@@H](OCc2ccncc2)C[C@H]1C(=O)NC(C)(C)C	CEMx174 + CEM	ROD	p24	0.014 µM	90%
CSC[C@H](NC(=O)COc1cccc2cnccc12)C(=O)N[C@@H](Cc1ccccc1)[C@H](O)C(=O)N1CSC(C)(C)[C@H]1C(=O)NC(C)(C)C	ATH8	ROD	trypan blue	0.4 µM	90%
CO[C@@H]1[C@@H](O)[C@@H](O)[C@H](O)[C@H](O)[C@H]1n1cnc2c(N)ncnc21.O=C(O)/C=C/C(=O)O	MT-4		cytopathic effect / MTT	10 µg/mL	44.2%
O=C1N(Cc2ccc(CO)cc2)[C@H](Cc2ccccc2)[C@H](O)[C@@H](O)[C@@H](Cc2ccccc2)N1Cc1ccc(CO)cc1	MT-2	ROD	virus yield	0.05 µM	90%
CCCC(=O)O[C@H]1CN2CC[C@H](O)[C@@H]2[C@@H](O)[C@@H]1O	H9	ROD		4 µM	90%
CO[C@H]1[C@@H](O)[C@H](n2cnc3c(N)ncnc32)[C@@H](O)[C@H](O)[C@@H]1O	MT-4		cytopathic effect / MTT	10 µg/mL	62.5%

A second listing of 2 rows from above:

| structure | cells | strain | read by | dose | value |
|---|---|---|---|---|---|
| CSC[C@H](NC(=O)COc1cccc2cnccc12)C(=O)N[C@@H](Cc1ccccc1)[C@H](O)C(=O)N1CSC(C)(C)[C@H]1C(=O)NC(C)(C)C | ATH8 | ROD | trypan blue | 0.4 µM | 90% |
| [B-]P(=O)([O-])CC[C@@H]1C=C[C@H](n2cc(C)c(=O)[nH]c2=O)O1 | CEM | ROD | syncytia | 400 µM | 0% |